In patent publication US20110104179A1, “PROTEASE INHIBITORY PEPTIDES” (priority 2009, published 2011):
Marks after values point to notes of the source that are not given here.

What was measured:
[1] = biological target: RgpA-Kgp proteinase adhesin complexes (Arg-specific activity) (Porphyromonas gingivalis, UniProt B2RM93); assay: Arg-specific activity of purified RgpA-Kgp proteinase adhesin complexes (BApNA); conditions: for Protease activity (%) of the Arginine-gingipains, W50 Complex: 100 μM peptide; for Arg-specific Activity (%): % of control; for Arg-specific Activity (%) / Arg-specific Activity (Units/mg): purified RgpA-Kgp complexes; for Arg-specific Activity (Units/mg): BApNA
[2] = biological target: RgpA-Kgp proteinase adhesin complexes (Lys-specific activity) (Porphyromonas gingivalis, UniProt Q51817); assay: Lys-specific activity of purified RgpA-Kgp proteinase adhesin complexes (GPK-NA); conditions: for Lys-specific Activity (%): % of control; for Lys-specific Activity (%) / Lys-specific Activity (Units/mg): purified RgpA-Kgp complexes; for Lys-specific Activity (Units/mg): GPK-NA

Substance | Protease activity (%) of the Arginine-gingipains, W50 Complex [1] [%] | Protease activity (%) of the Lysine-gingipains, W50 Complex ([2]; 100 μM peptide) [%] | Arg-specific Activity (%) ([1]; 50 μM) | Arg-specific Activity (Units/mg) ([1]; 50 μM) | Arg-specific Activity (%) ([1]; 100 μM) | Arg-specific Activity (Units/mg) ([1]; 100 μM) | Arg-specific Activity (%) ([1]; 200 μM) | Arg-specific Activity (Units/mg) ([1]; 200 μM) | Lys-specific Activity (%) ([2]; 50 μM) | Lys-specific Activity (Units/mg) ([2]; 50 μM) | Lys-specific Activity (%) ([2]; 100 μM) | Lys-specific Activity (Units/mg) ([2]; 100 μM) | Lys-specific Activity (%) ([2]; 200 μM) | Lys-specific Activity (Units/mg) ([2]; 200 μM) | Protease activity (%) of the Lysine-gingipains, W50 Complex ([2]; 200 μM peptide) [%]
Tyr Gln Glu Pro Val Leu Gly Pro Val Arg Gly Pro Phe Pro Ile Ile Val | 21 | 12 |  |  |  |  |  |  |  |  |  |  |  |  | 
Thr Glu Ile Pro Thr Ile Asn Thr Ile Ala Ser Gly Glu Pro Thr Ser Thr Pro Thr Thr Glu |  |  | 46 | 1.95 ± 0.38^a,c Units/mg | 10 | 0.41 ± 0.11^a,b Units/mg | 8 | 0.33 ± 0.02^a,b Units/mg | 29 | 1.34 ± 0.25^a,c Units/mg | 21 | 0.98 ± 0.053^a,c Units/mg | 9 | 0.41 ± 0.014^a,b Units/mg | 
Leu Pro Gln Glu Val Leu Asn Glu Asn Leu Leu Arg Phe | 47 |  |  |  |  |  |  |  |  |  |  |  |  |  | 52
